Results of unrelated studies side by side (data: NIAID ChemDB).

All rows: tests in culture; species: Hepatitis C virus; read by: replicon; endpoint: EC50

Two numbers with a dash give a range or band. Neighbouring rows are from separate reports. ECn: concentration that inhibits the pathogen or its effect by n%. An empty or dashed field is not shown.

SMILES,strain,cells,result
COC(=O)c1ccc2c(C3CCCCC3)c3n(c2c1)CC(C(=O)N1C[C@@H](C)O[C@@H](C)C1)=Cc1ccccc1-3,-,Huh7,1–10 µM
C=C[C@@H]1C[C@]1(NC(=O)[C@@H]1C[C@@H](Oc2cc(-c3ccccc3)nc3cc(OC)ccc23)CN1C(=O)[C@@H](NC(=O)OC(C)(C)C)C(C)(C)C)C(=O)NS(=O)(=O)c1ccc(C(C)(C)C)cc1,1b,Huh7,<0.5 µM
COC(=O)C1=Cc2cc(Cl)ccc2-c2c(C3CCCCC3)c3ccc(C(=O)OC)cc3n2C1,-,Huh7,1–10 µM
Cc1ccc(C(=O)Nc2ccc(-c3cc(N(C(=O)C4CCC(C)CC4)C(C)C)c(C(=O)O)s3)cc2)o1,1a,-,<0.5 µM
C=C[C@@H]1C[C@]1(NC(=O)[C@@H]1C[C@@H](Oc2cc(-c3ccccc3)nc3cc(OC)ccc23)CN1C(=O)[C@@H](NS(=O)(=O)c1ccc(F)cc1)C(C)(C)C)C(=O)NS(=O)(=O)C1CC1,1b,Huh7,<0.5 µM
O=C(O)/C=C/c1ccc(NC(=O)C2(NC(=O)c3ccc4c(C5CCCCC5)c5n(c4c3)CCCc3ncccc3-5)CCCC2)cc1,-,Huh7,0.01–1 µM
C=CC1C[C@@]1(NC(=O)[C@@H]1C[C@@H](Oc2cc(-c3ccccn3)nc3cc(OC)ccc23)CN1C(=O)[C@@H](NC(=O)OC(C)(C)C)C(C)(C)C)C(=O)NS(=O)(=O)C1(Cc2ccccc2)CC1,1b,Huh7,0.05–0.5 µM
CCN(C(=O)C1CCC(C)CC1)c1cc(-c2ccc(NC(=O)c3cscn3)cc2)sc1C(=O)O,1b,-,<0.5 µM
CN(C)S(=O)(=O)NC(=O)c1ccc2c(C3CCCCC3)c3n(c2c1)CC(C(=O)N1CCOCC1)Cc1ccncc1-3,-,Huh7,0.01–1 µM
C=CC1C[C@@]1(NC(=O)[C@@H]1C[C@@H](Oc2cc(-c3csc(NC(C)C)n3)nc3cc(OC)ccc23)CN1C(=O)[C@@H](NC(=O)OC(C)(C)C)C(C)(C)C)C(=O)NS(=O)(=O)C1(CC2CC2)CC1,1b,Huh7,0.05–0.5 µM
C=CC1CC1(NC(=O)[C@@H]1C[C@@H](Oc2cc(-c3ccccc3)nc3cc(OC)ccc23)CN1C(=O)[C@@H](NC(=O)OC(C)(C)C)C(C)C)C(=O)NS(C)(=O)=O,1b,Huh7,<5 µM
O=C1Cn2c(c(C3CCCCC3)c3ccc(C(=O)NC4(C(=O)Nc5ncc(-c6ccc(C(=O)O)cc6)s5)CCCC4)cc32)-c2ccccc2N1,-,Huh7,0.01–1 µM
C=CC1C[C@@]1(NC(=O)[C@@H]1C[C@@H](Oc2cc(-c3ccccc3)nc3cc(OC)ccc23)CN1C(=O)[C@@H](NC(=O)Oc1ccc(OC)cc1)C(C)(C)C)C(=O)NS(=O)(=O)C1(Cc2ccccc2)CC1,1b,Huh7,0.05–0.5 µM
CC1CCC(C(=O)N(CC2CC2)c2cc(-c3ccc(NC(=O)c4cccnn4)cc3)sc2C(=O)O)CC1,1b,-,<0.5 µM
C=C[C@@H]1C[C@]1(NC(=O)[C@@H]1C[C@@H](Oc2cc(-c3ccccc3)nc3cc(OC)ccc23)CN1C(=O)[C@@H](NC(=O)OC(C)(C)C)C(C)C)C(=O)NS(=O)(=O)C1CCC1,1b,Huh7,<0.05 µM
Cc1cccc(C(=O)Nc2ccc(-c3cc(N(C(=O)C4CCC(C)CC4)C(C)C)c(C(=O)O)s3)cc2)n1,1b,-,<0.5 µM
C=C[C@@H]1C[C@]1(NC(=O)[C@@H]1C[C@@H](Oc2cc(-c3ccccc3)nc3cc(OC)ccc23)CN1C(=O)[C@@H](NC(=O)OC(C)(C)C)C(C)(C)C)C(=O)NS(=O)(=O)C1CCC1,1b,Huh7,<0.05 µM
Cc1cccnc1C(=O)Nc1ccc(-c2cc(N(C(=O)C3CCC(C)CC3)C(C)C)c(C(=O)O)s2)cc1,1b,-,<0.5 µM
C=C[C@H]1C[C@@]1(NC(=O)[C@@H]1C[C@@H](Oc2cc(-c3ccccc3)nc3cc(OC)ccc23)CN1C(=O)[C@@H](NC(=O)OC(C)(C)C)C(C)(C)C)C(=O)NS(=O)(=O)C1([Si](C)(C)C)CC1,1b,Huh7,0.5–5 µM
COC(=O)c1ccc2c(C3CCCCC3)c3n(c2c1)CC(C#N)=Cc1ccccc1-3,-,Huh7,1–10 µM
CC1CCC(C(=O)N(c2cc(-c3ccc(NC(=O)c4ccccn4)cc3)sc2C(=O)O)C(C)C)CC1,1b,-,<0.5 µM
C=CC1CC1(NC(=O)[C@@H]1C[C@@H](Oc2cc(-c3ccccc3)nc3cc(OC)ccc23)CN1C(=O)[C@@H](NC(=O)OC(C)(C)C)C(C)(C)C)C(=O)NS(=O)(=O)C1([Si](C)(C)C)CC1,1b,Huh7,<0.05 µM
CC1CCC(C(=O)N(CC(F)F)c2cc(-c3ccc(NC(=O)c4cscn4)cc3)sc2C(=O)O)CC1,1a,-,<0.5 µM
C=COC(=O)N[C@H](C(=O)N1C[C@H](Oc2cc(-c3ccccc3)nc3cc(OC)ccc23)C[C@H]1C(=O)N[C@]1(C(=O)NS(=O)(=O)C2CC2)C[C@H]1C=C)C(C)(C)C,1b,Huh7,<0.05 µM
CCc1cc(C(=O)Nc2ccc(-c3cc(N(C(=O)C4CCC(C)CC4)C(C)C)c(C(=O)O)s3)cc2)no1,1a,-,<0.5 µM
O=C(O)c1ccc2c(C3CCCCC3)c3n(c2c1)CC(C(=O)N1CCC(N2CCCC2)CC1)Cc1ccccc1-3,-,Huh7,0.01–1 µM
CC1CCC(C(=O)N(c2cc(-c3ccc(NC(=O)c4ccc(F)cc4)nc3)sc2C(=O)O)C(C)C)CC1,1b,-,<0.5 µM
C=CC1C[C@@]1(NC(=O)[C@@H]1C[C@@H](Oc2cc(-c3ccccc3)nc3cc(OC)ccc23)CN1C(=O)[C@@H](NC(=O)Oc1ccc(C)cc1)C(C)(C)C)C(=O)NS(=O)(=O)C1(Cc2ccccc2)CC1,1b,Huh7,0.5–5 µM

A second listing of 4 rows from above:

SMILES,strain,cells,result
Cc1cccc(C(=O)Nc2ccc(-c3cc(N(C(=O)C4CCC(C)CC4)C(C)C)c(C(=O)O)s3)cc2)n1,1b,-,<0.5 µM
C=C[C@@H]1C[C@]1(NC(=O)[C@@H]1C[C@@H](Oc2cc(-c3ccccc3)nc3cc(OC)ccc23)CN1C(=O)[C@@H](NC(=O)OC(C)(C)C)C(C)(C)C)C(=O)NS(=O)(=O)C1CCC1,1b,Huh7,<0.05 µM
COC(=O)c1ccc2c(C3CCCCC3)c3n(c2c1)CC(C#N)=Cc1ccccc1-3,-,Huh7,1–10 µM
O=C1Cn2c(c(C3CCCCC3)c3ccc(C(=O)NC4(C(=O)Nc5ncc(-c6ccc(C(=O)O)cc6)s5)CCCC4)cc32)-c2ccccc2N1,-,Huh7,0.01–1 µM